The results in this text go back to paper PMC9822072, “Synthesis and Structure–Activity Relationship of 2,6-Disubstituted Thiosemicarbazone Derivatives of Pyridine as Potential Antituberculosis Agents” (Materials, 2023).

The first data set relates to M. tuberculosis H37Rv (standard strain). Description: Tuberculostatic activity, twofold serial microdilution with Alamar Blue. It counts as cell-based, Mycobacterium tuberculosis.
Details: not given
On the technique in general: Dilution methods test growth across graded concentrations, often in twofold steps.
As to `NC(=NNC(=S)N1CCCC1)c1cccc(N2CCCC2)n1` [Compound 5, 6-(Pyrrolidin-1-Yl)-N’-(Pyrrolidine-1-Carbonothioyl)Picolinohydrazonamide], the “MIC compared with INH, times higher” value is on record as 16. For the compound `NC(=NNC(=S)N1CCCC1)c1cccc(N2CCCCC2)n1` [Compound 7, 6-(Piperidin-1-Yl)-N’-(Pyrrolidine-1-Carbonothioyl)Picolinohydrazonamide], the “MIC compared with INH, times higher” value was 16.

In a further data set the test system is HaCaT cells. Put plainly: Cytotoxic activity, sulforhodamine B method. Particulars: IC50 HaCaT (sulforhodamine B) against MIC for M. tuberculosis standard strain. (In general: Sulforhodamine B stains cellular protein and so reports cell mass.)
For `NC(=NNC(=S)N1CCOCC1)c1cccc(N2CCCC2)n1` [Compound 4, N’-(Morpholine-4-Carbonothioyl)-6-(Pyrrolidin-1-Yl)Picolinohydrazonamide], the “SI IC50-HaCaT/MIC-MT SULF” value is given as over 3.13. As for `NC(=NNC(=S)N1CCOCC1)c1cccc(N2CCCCC2)n1` [Compound 6, N’-(Morpholine-4-Carbonothioyl)-6-(Piperidin-1-Yl)Picolinohydrazonamide], the “SI IC50-HaCaT/MIC-MT SULF” value is given as over 6.25.

As for `NC(=NNC(=S)N1CCCC1)c1cccc(Oc2ccccc2)n1` [Compound 9, 6-Phenoxy-N’-(Pyrrolidine-1-Carbonothioyl)Picolinohydrazonamide], the “SI IC50-HaCaT/MIC-MT SULF” value is 0.16. `NC(=NNC(=S)N1CCOCC1)c1cccc(Oc2ccccc2)n1` [Compound 8, N’-(Morpholine-4-Carbonothioyl)-6-Phenoxypicolinohydrazonamide]: the “SI IC50-HaCaT/MIC-MT SULF” value was found to be 6.25.
